Each compound was assayed on V. cholerae N16961. Conditions: inhibitor concentrations to 1 μM.
With CCCCSCC1CN(Cc2c[nH]c3c(N)ncnc23)CC1O (stereo not drawn) [BuT-DADMe-ImmA, 5′-butylthio-(BuT-)DADMe-ImmucillinA] the “Effect on growth (OD600) of V. cholerae N16961” value (“Effect on growth (OD600)” below) was “nontoxicity”. For CCSCC1CN(Cc2c[nH]c3c(N)ncnc23)CC1O (stereo not drawn) [EtT-DADMe-ImmA, 5′-ethylthio-(EtT-) DADMe-ImmucillinA], the “Effect on growth (OD600)” value was “nontoxicity”. In the case of CSCC1CN(Cc2c[nH]c3c(N)ncnc23)CC1O (stereo not drawn) [MT-DADMe-ImmA, 5′-methylthio-(MT-) DADMe-ImmucillinA], the “Effect on growth (OD600)” value is reported as “nontoxicity”.
